From patent US20250263469A1, “POLYPEPTIDES TARGETING SARS-COV-2 AND RELATED COMPOSITIONS AND METHODS” (HOSPITAL FOR SICK CHILDREN, published 2025)
Where two headings read alike, the source gives them in different places.

B1: mAb 80 (antibody, V domains shown)
VH: QVQLVQSGAEVKKPGSSVKVSCKASGGTFNRYAFSWVRQAPGQGLEWMGGIIPIFGTANYAQKFQGRVTITADESTSTAYMELSSLRSEDTAVYYCARSTRELPEVVDWYFDLWGRGTLVTVSS
VL: DIVMTQSPDSLAVSLGERATINCKSSQSVLYSSNNKNYLAWYQQKPGQPPKLLIYWASTRESGVPDRFSGSGSGTDFTLTISSLQAEDVAVYYCQQYYSAPLTFGGGTKVEIKR
B2: mAb 298 (antibody, V domains shown)
VH: QVQLVQSGAEVKKPGASVKVSCKASGGTFSTYGISWVRQAPGQGLEWMGWISPNSGGTDLAQKFQGRVTMTRDTSTSTVYMELSSLRSEDTAVYYCASDPRDDIAGGYWGQGTLVTVSS
VL: not shown

Experiments:
[1] = biological target: T1, SARS-CoV-2 receptor binding domain (RBD), wild type (BEI NR52309) (SARS-CoV-2, UniProt P0DTC2 319-541); assay: method and antibody format not given
[2] = biological target: T1, SARS-CoV-2 receptor binding domain …; assay: BLI competition on His-tagged RBD, signal of the 2nd Ab after 1st Ab 324
[3] = biological target: T1, SARS-CoV-2 receptor binding domain …; assay: BLI competition on His-tagged RBD, signal of the 2nd Ab after 1st Ab 236
[4] = biological target: T1, SARS-CoV-2 receptor binding domain …; assay: BLI competition on His-tagged RBD, signal of the 2nd Ab after 1st Ab 82
[5] = biological target: T1, SARS-CoV-2 receptor binding domain …; assay: BLI competition on His-tagged RBD, signal of the 2nd Ab after 1st Ab 298
[6] = biological target: T1, SARS-CoV-2 receptor binding domain …; assay: BLI competition on His-tagged RBD, signal of the 2nd Ab after 1st Ab 46
[7] = biological target: T1, SARS-CoV-2 receptor binding domain …; assay: BLI competition on His-tagged RBD, signal of the 2nd Ab after 1st Ab 80
[8] = biological target: T1, SARS-CoV-2 receptor binding domain …; assay: BLI competition on His-tagged RBD, signal of the 2nd Ab after 1st Ab 52
[9] = biological target: T1, SARS-CoV-2 receptor binding domain …; assay: method and antibody format not given; remark: listed apart in the source

Binder | Kd [1] [nM] | RBD binding [2] | RBD binding [3] | RBD binding [4] | RBD binding [5] | RBD binding [6] | RBD binding [7] | RBD binding [8] | Kd [9] [nM]
B1 | 142 | 0.2 | 0.2 | 0.1 | 0.1 | 1 | 0.5 | 0.9 | 
B2 |  | 0.5 | 0.4 | 0.2 | 0.3 | 1.4 | 0.3 | 1.2 | 24
